The structures appear in SMILES notation. In brackets after ≈: the same amount, converted by molar mass.

Data on 1 compound can be found in US4382952A, “Antibiotic roridin L-2 and its use” (dated 1983).

The subject of one test is L1210 cells. The experiment in a line: ID50 against L1210 cells.
A further test has as its system P388 Lymphatic Leukemia. Nature of the test: Antitumor activity against P388 lymphatic leukemia in mice. The following applies: values ≥ 130 considered active.
The test system of the next test is KB cells. Nature of the test: Zone of inhibition against KB cells in agar (paper disk). The following applies: 6.4 mm paper disk.

As to `CC1=C[C@H]2O[C@@H]3C[C@@H](OC(=O)/C=C\C=C\C(OCCC4=CC(=O)OC4)C(C)O)[C@](C)([C@@]2(CO)CC1)[C@]31CO1` (some centres unmarked), the ID50 in the test with L1210 cells was determined as 0.178 µg/mL (≈ 0.335 µM). In addition, the “T/C percent MST” value in the test with P388 Lymphatic Leukemia (1 mg/kg/day, test 1) turned out to be 132%; in the test with P388 Lymphatic Leukemia (1 mg/kg/day, test 2), 150%; in the test on P388 Lymphatic Leukemia (2 mg/kg/day, test 1), 140%; in the test on P388 Lymphatic Leukemia (4 mg/kg/day, test 1), 134%; in the test with P388 Lymphatic Leukemia (4 mg/kg/day, test 2), 132%; with P388 Lymphatic Leukemia (8 mg/kg/day, test 1), 157%. Also, the “T/C percent MST” value with P388 Lymphatic Leukemia (8 mg/kg/day, test 2) was found to be 176%; with P388 Lymphatic Leukemia (16 mg/kg/day, test 2), 185%. The “zone diameter of inhibition” value in the test on KB cells (10 μg per milliliter) is listed as 12 mm; in the test on KB cells (100 μg per milliliter), 28 mm.
